Pooled drug test results. Numbers come from NIAID ChemDB, via PubChem.

Shared fields: whole-cell or culture tests; organism: Hepatitis C virus; method: replicon; endpoint: EC50

Conditions beyond the fields shown may differ between rows. a–b is a range or a potency band. ECn is the concentration giving n% inhibition of infection, replication or growth. Blank or dashed fields: not listed here.

structure | cell line | strain | conditions | value
COc1ccc2c(O[C@@H]3C[C@H]4C(=O)N[C@]5(C(=O)O)C[C@H]5/C=C\CCCCC[C@H](NC(=O)OC5CCCC5)C(=O)N4C3)cc(-c3csc(NC(C)C)n3)nc2c1 | Huh7 | Mutant strain |  | 1–1.8 µM
CNC(=O)c1cnccc1Nc1nc(-c2cc(Cl)ccc2F)nc2nc(NCCN(C)C)ccc12 | Huh7 |  |  | >10 µM
COc1ccc(-c2cnc3nc(N)nc(N4CCN(C(=O)/C=C/c5ccccc5)CC4)c3n2)cc1OC | Huh7 | HCV replicon |  | <0.3 µM
C=CC1CC1(NC(=O)[C@@H]1C[C@@H](OC(=O)Nc2ccc(Cl)cc2-c2cc(C)[nH]n2)CN1C(=O)[C@@H](NC(=O)OC(C)(C)C)C(C)(C)C)C(=O)NS(=O)(=O)C1CC1 | Huh7 | 1b |  | >10 µM
CCOC(=O)c1cc2ccccc2c2c(C3CCCCC3)c3ccc(C(=O)OC)cc3n12 | Huh7 |  |  | >10 µM
O=C(O)/C=C/c1ccc(NC(=O)C2(NC(=O)c3ccc4c(c3)nc(-c3ccccn3)n4C3CCCCC3)CCCC2)cc1 |  | 1b |  | 0.55 µM
COC(=O)c1ccc2c(C3CCCCC3)c3n(c2c1)CC(=O)N(CCN(C)C)c1ccccc1-3 | Huh7 |  |  | 1–10 µM
Nc1ncnc2c1ncn2[C@@H]1CNC[C@@H]1OCP(=O)(O)O |  |  |  | >50 µM
Nc1ncnc2c1c(-c1cccs1)cn2[C@@H]1O[C@H](CO)[C@@H](O)C1(F)F | HCV replicon | 1a |  | 5.3 µM
O=C(Nc1ccc(C2SC(=Nc3ccc(N4CCOCC4)cc3)N(Cc3ccccn3)C2=O)cc1)[C@H]1CCC(=O)N1C(=O)C(c1ccccc1)c1ccccc1 | Huh7 |  |  | 0.1–1 µM
COc1c(C(C)(C)C)cc(-n2ccc(=O)[nH]c2=O)c2ncc(-c3ccc(NS(C)(=O)=O)cc3)cc12 | Huh7 | GT 1a-H77 | 40% human serum | 0.004 µM
O=C(Nc1ccc(C2SC(=Nc3ccc(N4CCOCC4)cc3)N(Cc3ccccn3)C2=O)cc1)[C@H]1C[C@H](O)CN1C(=O)OCc1ccccc1 | Huh7 |  |  | 0.1–1 µM
Nc1nc(N)c2ncn([C@@H]3O[C@H](CO)[C@@H](O)[C@@H]3F)c2n1 | Huh7 |  |  | 10 µM
C[C@@]1(O)[C@H](O)[C@@H](CO)O[C@H]1N1C=CC(N)NC1=O | Huh7 | 1b |  | 2.8 µM
CCCCCOc1ccc(C(=O)N2CCN(c3nc(N)nc4ncc(-c5ccc(OC)c(OC)c5)nc34)CC2)cc1 | Huh7 | HCV replicon |  | <0.3 µM
COC(=O)N[C@H](C(=O)N1CC2(CC2)C[C@H]1c1ncc(-c2ccc3c(c2)C(F)(F)c2cc(-c4ccc5nc([C@@H]6[C@H]7CC[C@H](C7)N6C(=O)[C@@H](NC(=O)OC)C(C)C)[nH]c5c4)ccc2-3)[nH]1)C(C)C | HCV replicon | Genotype 6a |  | 0.00011 µM
CNC(=O)c1c(-c2ccc(F)cc2)oc2cc(C3CNC(=O)O3)c(OC)cc12 | Huh7 |  |  | <10 µM
C=CC1CC1(NC(=O)[C@@H]1C[C@@H](OC(=O)Nc2ncccc2C(=O)OCC)CN1C(=O)[C@@H](NC(=O)OC(C)(C)C)C(C)(C)C)C(=O)NS(=O)(=O)C1CC1 | Huh7 | 1b |  | 1–10 µM
O=C(Nc1ccc(C2SC(=Nc3ccc(N4CCOCC4)cc3)N(Cc3ccccn3)C2=O)cc1)[C@H]1CCCN1C(=O)Cc1ccc(C(F)(F)F)cc1 | Huh7 |  |  | 1–5 µM
CNC(=O)c1c(-c2ccc(F)cc2)oc2cc(-c3cccc(S(C)(=O)=O)c3)c(OC(C)C)cc12 | Huh7 |  |  | <10 µM
Nc1ccc2c(Nc3ccncc3)nc(-c3cc(F)ccc3F)nc2n1 | Huh7 |  |  | 2.1 µM
Nc1ncnc2c1c(-c1ccc3ccccc3c1)cn2[C@@H]1O[C@H](CO)[C@@H](O)C1(F)F | HCV replicon | 1b |  | 1.21 µM
CNC(=O)c1c(-c2ccc(F)cc2)oc2cc(N(C)S(C)(=O)=O)c(OCc3ccc(C#N)cc3)cc12 | Huh7 |  |  | <1 µM
Nc1ncnc2c1c(I)cn2[C@@H]1O[C@H](CO)[C@@H](O)[C@H]1F | HCV replicon | 1b |  | 1.02 µM
CNC(=O)c1c(-c2ccccc2)oc2ccc(C#N)cc12 | Huh7 |  |  | <30 µM
Cc1cc(C)n2nc(CC3=C(O)CC(CCc4ccc(C(C)(C)C#N)c(Cl)c4)(C4CCCC4)OC3=O)nc2n1 |  | M423T |  | 7.3 µM
Cc1cc(F)ccc1N=C1SC(c2ccc(NC(=O)[C@@H](C)NC(=O)OCc3ccccc3)cc2)C(=O)N1Cc1ccco1 | Huh7 |  |  | 1–5 µM
COc1ccc(-c2cnc3nc(N)nc(N4CCN(Cc5ccccn5)CC4)c3n2)cc1OC | Huh7 | HCV replicon |  | 0.3–1 µM
COc1ccc2c(c1)C=C(C(=O)N1C3CCC1CN(C)C3)Cn1c-2c(C2CCCCC2)c2ccc(C(=O)O)cc21 |  |  |  | 0.001–0.5 µM
C[C@@H](NC(=O)NCc1ccccc1)C(=O)Nc1ccc(C2SC(=Nc3cccc(F)c3)N(Cc3ccco3)C2=O)cc1 | Huh7 |  |  | 0.1–1 µM
Nc1ncnc2c1c(I)cn2[C@H]1O[C@H](CO)[C@@H](O)C1(F)F | HCV replicon | 1b |  | 0.7 µM
COc1ccc(-c2cnc3nc(N)nc(N4CCN(C(=O)Cc5ccc(Cl)cc5)CC4)c3n2)cc1OC | Huh7 | HCV replicon |  | <0.3 µM
Nc1ncnc2c1c(-c1ccoc1)cn2[C@@H]1O[C@H](CO)[C@@H](O)C1(F)F | HCV replicon | 1b |  | 13.18 µM
C[C@@H](NC(=O)OCc1ccccc1)C(=O)Nc1ccc(C2SC(=Nc3cccc4ccncc34)N(Cc3ccco3)C2=O)cc1 | Huh7 |  |  | <0.1 µM
CNC(=O)c1c(-c2ccc(F)cc2)oc2cc(N(CS(C)(=O)=O)c3ccncc3)c(OC)cc12 | Huh7 |  |  | <1 µM
NC(=O)c1cnccc1Nc1nc(-c2cc(Cl)ccc2F)nc2ncccc12 | Huh7 |  |  | 0.76 µM
Nc1ncnc2c1c(-c1ccco1)cn2[C@@H]1O[C@H](CO)[C@@H](O)C1(F)F | HCV replicon | 1a |  | 6.04 µM
CNC(=O)c1c(-c2ccc(F)cc2)oc2cc(N(CS(C)(=O)=O)c3nccs3)c(OC(C)C)cc12 | Huh7 |  |  | <1 µM
C[N+](C)(C)S(=O)(=O)NC(=O)c1ccc2c(C3CCCCC3)c3n(c2c1)CC(C(=O)N1CCOCC1)=Cc1ccccc1-3 | Huh7 |  |  | 0.01–1 µM
Nc1ncnc2c1c(-c1ccccc1)cn2[C@@H]1O[C@H](CO)[C@@H](O)C1(F)F | HCV replicon | 1b |  | 6.49 µM
CN(C)CCN1C(=O)Cn2c(c(C3CCCCC3)c3ccc(C(=O)O)cc32)-c2ccccc21 | Huh7 |  |  | 0.01–1 µM
COc1cccc2c1C=C(C(=O)N1CC3CCC(C1)N3)Cn1c-2c(C2CCCCC2)c2ccc(C(=O)NS(=O)(=O)N(C)C)cc21 |  |  |  | 0.001–0.5 µM
C=CC1CC1(NC(=O)[C@@H]1C[C@@H](OC(=O)Nc2ccccc2OC)CN1C(=O)[C@@H](NC(=O)OC(C)(C)C)C(C)(C)C)C(=O)NS(=O)(=O)C1CC1 | Huh7 | 1b |  | 0.1–1 µM
Cc1cnc(CN2C(=O)C(c3ccc(NC(=O)[C@H]4CCCN4C(=O)OCc4ccccc4)cc3)SC2=Nc2ccc(N3CCOCC3)cc2)cn1 | Huh7 |  |  | <0.1 µM
COCCNc1ccc2c(Nc3ccncc3F)nc(-c3cc(Cl)ccc3F)nc2n1 | Huh7 |  |  | 3.4 µM
Fc1ccc(CNc2nc(NCC(F)(F)F)c3nc(-c4ccc(F)cc4)cnc3n2)cc1 | Huh7 | HCV replicon |  | <0.3 µM
CC(O)CNC(=O)c1cnccc1Nc1nc(-c2cc(Cl)ccc2F)nc2nc(NCCN(C)C)ccc12 | Huh7 |  |  | >10 µM
COc1ccc(-c2cnc3nc(N)nc(N4CCN(CCC#N)CC4)c3n2)cc1OC | Huh7 | HCV replicon |  | <0.3 µM
O=C(O)c1ccc2c(C3CCCCC3)c3n(c2c1)C/C=C\CN(CCO)c1ccccc1-3 | Huh7 |  |  | 1–10 µM
COc1ccc2c(c1)C=C(C(=O)N1CC3CCC(C1)N3)Cn1c-2c(C2CCCCC2)c2ccc(C(=O)NS(=O)(=O)N(C)C)cc21 |  |  |  | 0.001–0.5 µM
O=C(NS(=O)(=O)C1CC1)c1ccc2c(C3CCCCC3)c3n(c2c1)CCNc1ccccc1-3 | Huh7 |  |  | 0.01–1 µM
Nc1ccn([C@@H]2O[C@H](CO)[C@@H](O)[C@H]2F)c(=O)n1 | Huh7 |  |  | <5 µM
COc1ccc(CC(=O)N2CCC[C@@H]2C(=O)Nc2ccc(C3SC(=Nc4ccc(N5CCOCC5)cc4)N(Cc4ccccn4)C3=O)cc2)cc1 | Huh7 |  |  | 0.1–1 µM
Nc1ncnc2c1c(-c1cccs1)cn2[C@@H]1O[C@H](CO)[C@@H](O)[C@H]1F | HCV replicon | 1b |  | 1.99 µM
COC(=O)c1ccc2c(C3CCCCC3)c3n(c2c1)CC(C(=O)N1C2CCC1CN(C)C2)=Cc1c(OC(F)(F)F)cccc1-3 |  |  |  | >0.5 µM
O=C(O)c1ccc2c(C3CCCCC3)c3n(c2c1)CC(C(=O)Nc1ccccc1)Cc1ccccc1-3 | Huh7 |  |  | 1–10 µM
COc1ccc(-c2cnc3nc(N)nc(N4CCN(CC(=O)N5CCOCC5)CC4)c3n2)cc1OC | Huh7 | HCV replicon |  | 0.3–1 µM
CCN(c1cc2oc(-c3ccc(F)cc3)c(C(=O)NC)c2cc1O)S(C)(=O)=O | Huh7 |  |  | <10 µM
C=CC1CC1(NC(=O)[C@@H]1C[C@@H](OC(=O)Nc2ccccc2C(=O)OCCCC)CN1C(=O)[C@@H](NC(=O)OC(C)(C)C)C(C)(C)C)C(=O)NS(=O)(=O)C1CC1 | Huh7 | 1b |  | 0.1–1 µM

A second listing of 9 rows from above:

structure	cell line	strain	conditions	value
COc1ccc2c(O[C@@H]3C[C@H]4C(=O)N[C@]5(C(=O)O)C[C@H]5/C=C\CCCCC[C@H](NC(=O)OC5CCCC5)C(=O)N4C3)cc(-c3csc(NC(C)C)n3)nc2c1	Huh7	Mutant strain		1–1.8 µM
COc1ccc2c(c1)C=C(C(=O)N1CC3CCC(C1)N3)Cn1c-2c(C2CCCCC2)c2ccc(C(=O)NS(=O)(=O)N(C)C)cc21				0.001–0.5 µM
C=CC1CC1(NC(=O)[C@@H]1C[C@@H](OC(=O)Nc2ccccc2C(=O)OCCCC)CN1C(=O)[C@@H](NC(=O)OC(C)(C)C)C(C)(C)C)C(=O)NS(=O)(=O)C1CC1	Huh7	1b		0.1–1 µM
COc1ccc(-c2cnc3nc(N)nc(N4CCN(Cc5ccccn5)CC4)c3n2)cc1OC	Huh7	HCV replicon		0.3–1 µM
C=CC1CC1(NC(=O)[C@@H]1C[C@@H](OC(=O)Nc2ccc(Cl)cc2-c2cc(C)[nH]n2)CN1C(=O)[C@@H](NC(=O)OC(C)(C)C)C(C)(C)C)C(=O)NS(=O)(=O)C1CC1	Huh7	1b		>10 µM
COC(=O)c1ccc2c(C3CCCCC3)c3n(c2c1)CC(=O)N(CCN(C)C)c1ccccc1-3	Huh7			1–10 µM
O=C(O)/C=C/c1ccc(NC(=O)C2(NC(=O)c3ccc4c(c3)nc(-c3ccccn3)n4C3CCCCC3)CCCC2)cc1		1b		0.55 µM
Nc1ncnc2c1ncn2[C@@H]1CNC[C@@H]1OCP(=O)(O)O				>50 µM
COc1ccc(CC(=O)N2CCC[C@@H]2C(=O)Nc2ccc(C3SC(=Nc4ccc(N5CCOCC5)cc4)N(Cc4ccccn4)C3=O)cc2)cc1	Huh7			0.1–1 µM